Drawing on patent EP0176613A1, “A process for producing phosphoric acid and/or phosphates from wet-process phosphoric acid and an extractant used therein” (dated 1986), this text covers solubility in water for 1 molecule.

The series can be described thus: Solubility of the extractant in water. To be noted: extractant diluted with 40% kerosine.

`CCCCOP(=O)(OCCCC)OCCCC` gave a solubility in water of 380 PPM.
